Anti-infective test results gathered from many reports (values: NIAID ChemDB through PubChem).

Shared fields: tests in culture; species: Candida albicans; endpoint: MIC

An empty or dashed field is not shown. Rows are shuffled and stem from different studies. a–b is a range or a potency band.

structure,strain or isolate,read by,setting,result
Cn1c(-c2ccccn2)nsc1=O,-,-,-,0.06 µg/mL
Clc1ccc(-c2csc(N3N=C(c4cccs4)CC3c3ccc4c(c3)OCO4)n2)cc1,Clinical isolates,-,-,250 µg/mL
O=C(CC(=O)C(F)(F)F)c1ccccc1,-,-,-,>50 µg/mL
Cc1c(O)cccc1C(=O)N[C@@H](CSc1ccccc1)[C@H](O)CN1C[C@H]2CCCC[C@H]2C[C@H]1C(=O)NC(C)(C)C,I68A,-,-,64 µg/mL
C[C@@H](n1ccn(-c2ccc(OCC(F)(F)C(F)F)cc2)c1=O)C(O)(Cn1cncn1)c1ccc(F)cc1F,TIMM1756,-,-,<0.016 µg/mL
COc1cc(OC/C(=N/O)c2ccccc2)cc(OC)c1OC,ATCC 10231,broth dilution,24 h,>125 µg/mL
CCC(C)Oc1ccc(O)c(C(=O)NN)c1,Clinical isolates,-,-,125–250 µg/mL
C[C@@H](n1ccn(-c2ccc(OCC(F)(F)C(F)F)cc2)c1=O)C(O)(Cn1cncn1)c1ccccc1F,TIMM1756,-,-,<0.016 µg/mL
C[C@@H](CC1COC(/C=C/C=C/c2ccc(C#N)cc2F)OC1)[C@](O)(Cn1cncn1)c1ccc(F)cc1F,ATCC64550,-,-,0.5–1 µg/mL
CCOC(=O)c1csc(NC(=O)CSc2nnc(C(C)Oc3ccc(Cl)cc3)n2-c2ccccc2)n1,Clinical isolates,-,-,>16 µg/mL
CC1(C)S[C@@H]2[C@H](NC(=O)[C@H](N)c3ccccc3)C(=O)N2[C@H]1C(=O)O,ATCC 2002,broth dilution,-,0.6 µg/mL
CCCSc1nc(Cl)c(C#N)c(-c2cccs2)n1,-,-,-,>100 µg/mL
O=C(COc1cccc(Cl)c1)c1ccccc1,ATCC 10231,broth dilution,48 h,>125 µg/mL
C[C@H]1[C@H](O)[C@@H](C)/C=C/C=C/C=C/C=C/C=C/C=C/C=C/[C@H](O[C@@H]2O[C@H](C)[C@@H](O)[C@H](N)[C@@H]2O)C[C@@H]2O[C@](O)(C[C@@H](O)C[C@@H](O)CC[C@H](O)[C@@H](O)C[C@@H](O)CC(=O)O[C@H]1C)C[C@H](O)[C@H]2C(=O)O,90028,broth dilution,-,0.03 µg/mL
CCCCCOc1ccc(O)c(C(=O)NN)c1,Clinical isolates,-,-,125–250 µg/mL
CCC(C)n1ncn(-c2ccc(N3CCN(c4ccc(OC[C@H]5CO[C@](Cn6cncn6)(c6ccc(Cl)cc6Cl)O5)cc4)CC3)cc2)c1=O,ATCC 90028,-,-,0.12 µg/mL
COc1ccc(C2CC(c3cccs3)=NN2c2nc(-c3ccccc3)cs2)cc1,Clinical isolates,-,-,62.5 µg/mL
Cn1c(-c2ccccn2)noc1=S,-,-,-,0.51 µg/mL
COc1cc(O)c2c(c1)C(=O)c1c(cc3c(c1O)-c1c(cc(C)c(C(=O)NC(CO)C(=O)O)c1O)[C@H](OC1OC(C)C(O)C(OC4OCC(O)C(O)C4O)C1O)C3O)C2=O,ATCC 90028,-,-,6.25 µg/mL
Clc1ccc(-c2csc(N3N=C(c4cccs4)CC3c3ccc(Cl)cc3)n2)cc1,Clinical isolates,-,-,125 µg/mL
COc1cc(OCC(=O)c2ccccc2)cc(OC)c1OC,ATCC 10231,broth dilution,48 h,>125 µg/mL
CC(=O)O/N=C(\c1ccccc1)c1oc2ccccc2c1C,-,-,-,8 µg/mL
N#Cc1cnn(-c2ccccc2)c1/N=c1\ssnc1Cl,ATCC 10231,-,-,50 µg/mL
NC(=NC1CCCC1)c1ccc(-c2ccc(-c3ccc(C(N)=NC4CCCC4)cc3)o2)cc1,Isolate CA1247,-,-,25 µg/mL
CC1(C)OCC(CO/N=C(\Cn2ccnc2)c2ccc(Cl)cc2Cl)O1,-,-,-,≤10 µg/mL
Cc1ccc(C2CC(c3cccs3)=NN2c2nc(-c3ccc(Cl)cc3)cs2)cc1,Clinical isolates,-,-,125 µg/mL
COc1ccccc1OC/C(=N/O)c1ccccc1,ATCC 10231,broth dilution,24 h,125 µg/mL
CCCOc1ccc(O)c(C(=O)NN)c1,Clinical isolates,-,-,125–250 µg/mL
COc1ccc(OC/C(=N/O)c2ccccc2)cc1,ATCC 10231,broth dilution,24 h,>125 µg/mL
CC1(c2ccc(Cl)cc2)OCC(CO/N=C(\Cn2ccnc2)c2ccc(Cl)cc2Cl)O1,-,-,-,≤10 µg/mL
O=C(O)c1ccc(OCc2ccccc2)cc1O,Clinical isolates,-,-,125–250 µg/mL
CCC(C)CC(C)CCCCCCCCC(=O)N[C@H]1C[C@@H](O)[C@H](NCCN)NC(=O)[C@@H]2[C@@H](O)CCN2C(=O)[C@H]([C@H](O)CCN)NC(=O)[C@H]([C@H](O)[C@@H](O)c2ccc(O)cc2)NC(=O)[C@@H]2C[C@@H](O)CN2C(=O)[C@H]([C@@H](C)O)NC1=O,40 isolates,-,-,16 µg/mL
Cc1ccc(/C(=N/O)c2oc3ccccc3c2C)cc1,-,-,-,4 µg/mL
CC(Oc1ccccc1)c1n[nH]c(=S)n1C1CCCCC1,Clinical isolates,-,-,>16 µg/mL
Cc1noc(=S)n1-c1ccccc1,-,-,-,0.52 µg/mL
COC(=O)c1c(C)oc2cc(C(=O)C(Cl)Cl)c(O)c(Cl)c12,ATCC 90028,-,-,100 µg/mL
CCCSc1ccc2nc(NC(=O)OC)[nH]c2c1,92-1341,-,24 h,5 µg/mL
C[C@@H](n1ncn(-c2ccc(OCC(F)(F)C(F)F)cc2)c1=O)[C@](O)(Cn1cncn1)c1ccc(F)cc1F,TA,-,-,0.008 µg/mL
N#Cc1cnn(Cc2ccccc2)c1/N=c1\ssnc1Cl,ATCC 10231,-,-,>100 µg/mL
C[C@@H](SC1COC(/C=C/C=C/c2ccc(C#N)cc2)OC1)[C@](O)(Cn1cncn1)c1ccc(F)cc1F,TIMM3164,-,-,0.031–0.063 µg/mL
CCCSc1nc(Cl)c(C#N)c(-c2cccc(F)c2)n1,-,-,-,>100 µg/mL
CC1(C)OCC(CO/N=C(\Cn2cncn2)c2ccc(Cl)cc2Cl)O1,-,-,-,≤10 µg/mL
COc1ccc(/C(=N\OCc2ccccc2)c2oc3ccccc3c2C)cc1,-,-,-,>512 µg/mL
CCCCNC(=S)N/N=C/c1c[nH]c2ccccc12,ATCC 24433,broth dilution,-,500 µg/mL
CC(Oc1ccccc1)c1n[nH]c(=S)n1-c1ccccc1,NRRL Y-27077,-,-,16 µg/mL
CCCOc1ccc(C(=O)O)c(OC)c1,Clinical isolates,-,-,125–250 µg/mL
CCCCNC(=S)N/N=C/C=C/c1ccccc1,ATCC 24433,broth dilution,-,250 µg/mL
Cc1cc(COc2ccc(Oc3ccc(Cl)cc3)cc2)n(O)c(=O)c1,TIMM2640,-,-,4 µg/mL
CC(C)=CCCC(C)CCOC(Cn1ccnc1)c1ccc(Cl)cc1Cl,TIMM0144,-,-,20–40 µg/mL
CC1(c2ccc(Cl)cc2)OCC(CO/N=C(\Cn2ccnc2)c2ccccc2)O1,-,-,-,≤10 µg/mL
Cc1ccc(OC(C)c2nnc(SCC(=O)Nc3nccs3)n2C2CCCCC2)cc1,NRRL Y-27077,-,-,16 µg/mL
Clc1ccc(/C(Cn2ccnc2)=N/OCC2COC(Cn3cncn3)(c3ccc(Cl)cc3Cl)O2)c(Cl)c1,-,-,-,≤5 µg/mL
N#Cc1cnn(CCc2ccccc2)c1/N=c1\ssnc1Cl,ATCC 10231,-,-,25 µg/mL
COc1ccc(/C(=N\OC(C)=O)c2oc3ccccc3c2C)cc1,-,-,-,8 µg/mL
CC(C)(C)n1ncc(C#N)c1/N=c1\ssnc1Cl,ATCC 10231,-,-,25 µg/mL
CC(C)CCCC(C)CCOC(Cn1ccnc1)c1ccc(Cl)cc1Cl,TIMM0144,-,-,20 µg/mL
Cc1c(/C(=N\O)c2ccc(Cl)cc2)oc2ccccc12,-,-,-,4 µg/mL
S=C(N/N=C/c1c[nH]c2ccccc12)Nc1ccccc1,ATCC 24433,broth dilution,-,500 µg/mL
Cc1ccc(-n2c(-c3ccncc3)nsc2=O)cc1,-,-,-,0.09 µg/mL
O=C(COc1ccc(F)cc1)c1ccccc1,ATCC 10231,broth dilution,24 h,>125 µg/mL
CN1CCc2c(sc(/N=c3\ssnc3Cl)c2C#N)C1,ATCC 10231,-,-,100 µg/mL
Clc1ccccc1C(c1ccccc1)(c1ccccc1)n1ccnc1,Clinical isolates,-,18 h,2 µg/mL
C[C@H]1[C@H](O)[C@@H](C)/C=C/C=C/C=C/C=C/C=C/C=C/C=C/[C@H](O[C@@H]2O[C@H](C)[C@@H](O)[C@H](N)[C@@H]2O)C[C@@H]2O[C@](O)(C[C@@H](O)C[C@@H](O)CC[C@H](O)[C@@H](O)C[C@@H](O)CC(=O)O[C@H]1C)C[C@H](O)[C@H]2C(=O)O,n. 1r,broth dilution,-,2 µM
C[C@@H](n1ccn(-c2ccc(C(F)(F)F)cc2)c1=O)C(O)(Cn1cncn1)c1ccc(F)cc1F,TIMM1756,-,-,<0.016 µg/mL
COc1ccc(C2CC(c3cccs3)=NN2c2nc(-c3ccc(Cl)cc3)cs2)cc1,Clinical isolates,-,-,125 µg/mL
Cn1c(-c2ccncc2)noc1=S,-,-,-,1.02 µg/mL

4 of the rows above, restated:

structure | strain or isolate | read by | setting | result
COc1ccc(C2CC(c3cccs3)=NN2c2nc(-c3ccccc3)cs2)cc1 | Clinical isolates | - | - | 62.5 µg/mL
O=C(COc1ccc(F)cc1)c1ccccc1 | ATCC 10231 | broth dilution | 24 h | >125 µg/mL
CC(C)=CCCC(C)CCOC(Cn1ccnc1)c1ccc(Cl)cc1Cl | TIMM0144 | - | - | 20–40 µg/mL
CCC(C)CC(C)CCCCCCCCC(=O)N[C@H]1C[C@@H](O)[C@H](NCCN)NC(=O)[C@@H]2[C@@H](O)CCN2C(=O)[C@H]([C@H](O)CCN)NC(=O)[C@H]([C@H](O)[C@@H](O)c2ccc(O)cc2)NC(=O)[C@@H]2C[C@@H](O)CN2C(=O)[C@H]([C@@H](C)O)NC1=O | 40 isolates | - | - | 16 µg/mL